Measured values taken from article PMC11350758, “Development of Xanthoangelol-Derived Compounds with Membrane-Disrupting Effects against Gram-Positive Bacteria” (Antibiotics, 2024).

System: red blood cells
Experiment: Hemolysis assay
Assay type: cell-based, Sheep
Settings: HC50/MICs of S. aureus ATCC43300
Method: All target derivatives were assessed for their in vitro antibacterial activities using a broth microdilution assay to test their minimum inhibitory concentrations (MICs) against six Gram-positive strains (S. aureus ATCC31007, S. aureus ATCC25923, S. aureus ATCC43300, E. faecalis ATCC29212, B. subtilis ATCC9372, and S. epidermidis ATCC12228) and four Gram-negative strains (A. baumannii ATCC19606, K. pneumonia ATCC10031, E. coli ATCC25922, and P. aeruginosa ATCC27853). These compounds were also evaluated for their hemolytic activities and membrane selectivity by determining their HC50 (the concentration required to lyse 50% of red blood cells) and SI (HC50/MICs) values, respectively, and vancomycin was used as the positive drug.
To further detect the hemolytic toxicity and therapeutic potential of these derivatives, we proceeded to examine the hemolytic activities and membrane selectivity of these derivatives. The HC50 value was defined as the concentration needed for a compound to lyse 50% of red blood cells, and it is often used to evaluate the hemolytic toxicity to eukaryotic cells. […] The selectivity index (SI) was calculated by HC50/MICs of S. aureus ATCC43300 and was used to assess the potency and safety of the compounds. […] Thus, compound 9h was selected as a representative molecule for the in-depth in vitro and in vivo studies.
Sheep blood was used to isolate red blood cells (RBCs), which were then resuspended in 1× PBS (5%). The compounds were dissolved in PBS to give an initial concentration of 5.12 mg/mL, compound solution (100 μL) was added to the first well of a 96-well plate, two-fold serial dilutions of compounds were prepared in 96-well plates, and then 150 μL of 5% RBC suspension was added to each well. This was followed by incubation at 37 °C for 1 h. After incubation, the plate was centrifuged (3500 rpm, 5 min), and 100 μL of supernatant solution from each well was carefully pipetted into a new plate. The absorbance values were measured at 540 nm. Erythrocyte hemolysis rate = (Absorbancecompound – Absorbance negative control)/(Absorbance1% Triton X-100 − Absorbance negative control) × 100%. All biological experiments were repeated three times.

Row | SMILES | SI
1 | CC(=O)c1c(OCCCNCCCN2CCN(C)CC2)c2c(c3c1OC(C)(CCC=C(C)C)C=C3)OC(C)(CCC=C(C)C)C=C2 (stereo not drawn) [Compound 9h, 1-(2,8-Dimethyl-2,8-bis(4-methylpent-3-en-1-yl)-5-(3-((3-(4-methylpiperazin-1-yl)propyl)amino)propoxy)-2H,8H-pyrano [2,3-f]chromen-6-yl)ethan-1-one] | 49.0
2 | CC(=O)c1ccc2c(c1OCCCN1CCN(C(C)=O)CC1)C=CC(C)(CCC=C(C)C)O2 (stereo not drawn) [Compound 5e, 1-(4-(3-((6-Acetyl-2-methyl-2-(4-methylpent-3-en-1-yl)-2H-chromen-5-yl)oxy)propyl)piperazin-1-yl)ethan-1-one] | 0.49
3 | CCNCCCOc1c(C(C)=O)ccc2c1C=CC(C)(CCC=C(C)C)O2 (stereo not drawn) [Compound 5b, 1-(5-(3-(Ethylamino)propoxy)-2-methyl-2-(4-methylpent-3-en-1-yl)-2H-chromen-6-yl)ethan-1-one] | 7.4
4 | CC(=O)c1c(OCCCSC(=N)N)c2c(c3c1OC(C)(CCC=C(C)C)C=C3)OC(C)(CCC=C(C)C)C=C2 (stereo not drawn) [Compound 9e, 2-(3-((6-Acetyl-2,8-dimethyl-2,8-bis(4-methylpent-3-en-1-yl)-2H,8H-pyrano[2,3-f]chromen-5-yl)oxy)propyl)isothiouronium] | >20
5 | CC[N+](CC)(CC)CCCOc1c2c(c3c(c1C(C)=O)OC(C)(CCC=C(C)C)C=C3)OC(C)(CCC=C(C)C)C=C2 (stereo not drawn) [Compound 9a, 3-((6-Acetyl-2,8-dimethyl-2,8-bis(4-methylpent-3-en-1-yl)-2H,8H-pyrano[2,3-f]chromen-5-yl)oxy)-N,N,N-triethylpropan-1-aminium] | 10.1
6 | CC(=O)c1c(OCCC[n+]2ccccc2)c2c(c3c1OC(C)(CCC=C(C)C)C=C3)OC(C)(CCC=C(C)C)C=C2 (stereo not drawn) [Compound 9b, 1-(3-((6-Acetyl-2,8-dimethyl-2,8-bis(4-methylpent-3-en-1-yl)-2H,8H-pyrano[2,3-f]chromen-5-yl)oxy)propyl)pyridin-1-ium] | 26.6
7 | CC(=O)c1ccc2c(c1OCCCN1CC(C)OC(C)C1)C=CC(C)(CCC=C(C)C)O2 (stereo not drawn) [Compound 5d, 1-(5-(3-(2,6-Dimethylmorpholino)propoxy)-2-methyl-2-(4-methylpent-3-en-1-yl)-2H-chromen-6-yl)ethan-1-one] | <5.8
8 | CC(=O)c1ccc2c(c1OCCCNCCN(C)C)C=CC(C)(CCC=C(C)C)O2 (stereo not drawn) [Compound 5f, 1-(5-(3-((2-(Dimethylamino)ethyl)amino)propoxy)-2-methyl-2-(4-methylpent-3-en-1-yl)-2H-chromen-6-yl)ethan-1-one] | 16.0
9 | CC[N+](CC)(CC)CCCOc1c(C(C)=O)ccc2c1C=CC(C)(CCC=C(C)C)O2 (stereo not drawn) [Compound 5a, 3-((6-Acetyl-2-methyl-2-(4-methylpent-3-en-1-yl)-2H-chromen-5-yl)oxy)-N,N,N-triethylpropan-1-aminium] | 8.9
10 | CC(=O)c1ccc2c(c1OCCCN(C)CC(C)(C)CN(C)C)C=CC(C)(CCC=C(C)C)O2 (stereo not drawn) [Compound 5g, 1-(5-(3-((3-(Dimethylamino)-2,2-dimethylpropyl)(methyl)amino)propoxy)-2-methyl-2-(4-methylpent-3-en-1-yl)-2H-chromen-6-yl)ethan-1-one] | 22.9
11 | CC(=O)c1c(OCCCN2CC(C)OC(C)C2)c2c(c3c1OC(C)(CCC=C(C)C)C=C3)OC(C)(CCC=C(C)C)C=C2 (stereo not drawn) [Compound 9d, 1-(5-(3-(2,6-Dimethylmorpholino)propoxy)-2,8-dimethyl-2,8-bis(4-methylpent-3-en-1-yl)-2H,8H-pyrano[2,3-f]chromen-6-yl)ethan-1-one] | >10
12 | CCN(CC)CCCOc1c2c(c3c(c1C(C)=O)OC(C)(CCC=C(C)C)C=C3)OC(C)(CCC=C(C)C)C=C2 (stereo not drawn) [Compound 9c, 1-(5-(3-(Diethylamino)propoxy)-2,8-dimethyl-2,8-bis(4-methylpent-3-en-1-yl)-2H,8H-pyrano[2,3-f]chromen-6-yl)ethan-1-one] | 46.9
13 | CCN(CC)CCCOc1c(C(C)=O)ccc2c1C=CC(C)(CCC=C(C)C)O2 (stereo not drawn) [Compound 5c, 1-(5-(3-(Diethylamino)propoxy)-2-methyl-2-(4-methylpent-3-en-1-yl)-2H-chromen-6-yl)ethan-1-one] | 10.1
14 | CNCCN(C)CCCOc1c2c(c3c(c1C(C)=O)OC(C)(CCC=C(C)C)C=C3)OC(C)(CCC=C(C)C)C=C2 (stereo not drawn) [Compound 9f, 1-(2,8-Dimethyl-5-(3-(methyl(2-(methylamino)ethyl)amino)propoxy)-2,8-bis(4-methylpent-3-en-1-yl)-2H,8H-pyrano[2,3-f]chromen-6-yl)ethan-1-one] | 10.1
15 | CCN(CC)CCCNCCCOc1c2c(c3c(c1C(C)=O)OC(C)(CCC=C(C)C)C=C3)OC(C)(CCC=C(C)C)C=C2 (stereo not drawn) [Compound 9g, 1-(5-(3-((3-(Diethylamino)propyl)amino)propoxy)-2,8-dimethyl-2,8-bis(4-methylpent-3-en-1-yl)-2H,8H-pyrano[2,3-f]chromen-6-yl)ethan-1-one] | 8.7
